Data source: PubChem BioAssay AID624099 (ICCB-Longwood, 2012)

Assay: 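Human genes that papillomavirus E2 requires to repress the HPV18 LCR promoter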 (primary screen)
System: human C33A cervical carcinoma cells (HPV-negative) stably expressing BPV1 E2 and an HPV18 LCR luciferase reporter
Knock-down reagent: siRNA pool against human genes, 40 nM
Duration: 72 h
Detection: 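Per-well luciferase luminescence, z-scored on each plate against the plate mean and SD with control wells left out, then averaged across three replicate plates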
Reading the numbers: mean z-score and z-score: higher = stronger reporter signal, weaker E2 silencing
Hit rule: 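Hit if mean z-score reaches 2 and two or more of three replicate z-scores also reach 2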
In all, the deposit lists about 21,000 reagents; shown is a random part of them. 497 of them (2.4%) were called active. 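Higher z means weaker E2 silencing; only reporter increases were scored, and knock-downs that hurt cell survival may mask genuine repressor factors.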 Entries without a mark were called inactive. Reagents against one gene are numbered here.

| target gene | reagent no. | mean z-score | z-score, replicate A | z-score, replicate B | z-score, replicate C |
| --- | --- | --- | --- | --- | --- |
| WDR45 | 1 | -0.33 | -0.34 | -0.4 | -0.24 |
| LINC00310 | 1 | -2.68 | -2.53 | -2.28 | -3.22 |
| ISL1 | 1 | -0.65 | -0.55 | -0.77 | -0.61 |
| EPN1 | 1 | -0.35 | -0.23 | -0.37 | -0.45 |
| C16orf89 | 1 | -0.35 | 0.13 | -0.95 | -0.24 |
| ZNF385D | 1 | -0.21 | 0.21 | -0.82 | -0.01 |
| JAK1 | 1 | 0.49 | 0.62 | 0.32 | 0.53 |
| RGMB | 1 | 0.25 | 0.02 | 0.49 | 0.25 |
| STYK1 | 1 | 0.53 | 0.56 | 0.35 | 0.69 |
| ARK2N | 1 | 0.59 | 0.23 | 0.73 | 0.82 |
| ARFGAP3 | 1 | 1.05 | 1.14 | 0.97 | 1.05 |
| GP2 | 1 | -1.25 | -1.3 | -1.21 | -1.26 |
| SULT1E1 | 1 | 0.2 | 0.35 | 0.29 | -0.03 |
| PLAC8L1 | 1 | 1.01 | 1.23 | 1.11 | 0.69 |
| HIGD2A | 1 | 2.48 (active) | 2.74 | 2.72 | 1.97 |
| MAB21L4 | 1 | -0.36 | -0.13 | -0.52 | -0.44 |
| SEC14L5 | 1 | -0.96 | -0.88 | -1.16 | -0.84 |
| CCZ1P-OR7E38P | 1 | -0.16 | -0.3 | 0.17 | -0.34 |
| LOC401441 (retired record) | 1 | 0.64 | 0.51 | 0.41 | 1.01 |
| IL38 | 1 | 1.23 | 1.23 | 1.21 | 1.24 |
| IMP3 | 1 | -1.04 | -1.11 | -1.33 | -0.69 |
| CDK7 | 1 | -0.21 | 0.32 | -0.39 | -0.56 |
| ZNFX1 | 1 | -1.15 | -1.15 | -1.28 | -1.04 |
| DUSP4 | 1 | -0.92 | -0.64 | -1.04 | -1.09 |
| UBOX5 | 1 | 0.58 | 0.73 | 0.54 | 0.47 |
| RPP21 | 1 | -2.73 | -2.13 | -3.07 | -3.01 |
| SUCLG2P2 | 1 | 0.5 | 0.46 | 0.56 | 0.5 |
| BIN2 | 1 | 0.04 | 0.25 | 0 | -0.13 |
| SINHCAF | 1 | 0.96 | 0.86 | 0.83 | 1.18 |
| DBX1 | 1 | 1.28 | 1.05 | 1.71 | 1.09 |
| LOC93463 | 1 | -0.69 | -0.35 | -1.05 | -0.67 |
| LRRC46 | 1 | -0.33 | -0.31 | -0.75 | 0.06 |
| EGF | 1 | 0.32 | 0.19 | 0.38 | 0.39 |

Limited to “z-score, replicate B” (3 entries from above):
ISL1: -0.77
EPN1: -0.37
C16orf89: -0.95

The listing continues.
| target gene | reagent no. | mean z-score | z-score, replicate A | z-score, replicate B | z-score, replicate C |
| --- | --- | --- | --- | --- | --- |
| KLHDC3 | 1 | -2.58 | -3.26 | -2.28 | -2.19 |
| CBLL2 | 1 | 0.16 | 0.07 | 0.41 | -0.01 |
| CAMK2B | 1 | -1.17 | -1.45 | -1.25 | -0.82 |
| SAT2 | 1 | 0.29 | 0.34 | 0.39 | 0.15 |
| AMZ1 | 1 | 0.74 | 0.56 | 1.11 | 0.56 |
| CCDC38 | 1 | 0.98 | 0.6 | 0.88 | 1.45 |
| ADGRB3 | 1 | 0.36 | 0.39 | 0.52 | 0.17 |
| RASA4CP | 1 | -0.88 | -0.99 | -0.74 | -0.9 |
| RASA4CP | 2 | -1.15 | -1.29 | -0.9 | -1.28 |
| WNT8A | 1 | -1.12 | -1.34 | -0.94 | -1.08 |
| RAB8B | 1 | -0.31 | -0.08 | -0.39 | -0.45 |
| DBNDD1 | 1 | 0.93 | 0.82 | 0.86 | 1.13 |
| ZNF579 | 1 | 0.13 | 0.46 | 0.22 | -0.28 |
| LOC402036 (retired record) | 1 | 0.02 | -0.01 | 0 | 0.08 |
| SLC2A10 | 1 | 0.23 | 0.35 | -0.06 | 0.4 |
| IGFBP7-AS1 | 1 | 0.68 | 0.31 | 0.9 | 0.83 |
| ASCC3 | 1 | 0.36 | -0.02 | 0.22 | 0.89 |
| ASCC3 | 2 | 0.57 | 0.14 | 0.5 | 1.06 |
| MAGEA2 | 1 | 3.02 (active) | 3.03 | 2.95 | 3.1 |
| SUDS3 | 1 | -1.07 | -1.01 | -0.95 | -1.24 |
| LOC388947 (retired record) | 1 | -0.42 | -0.63 | -0.15 | -0.48 |
| TRMT10C | 1 | -0.6 | -0.74 | -0.61 | -0.47 |
| ZNF705A | 1 | 0.58 | 0.72 | 0.21 | 0.81 |
| SLFN12 | 1 | 0.3 | 0.48 | 0.38 | 0.05 |
